This note sets out measurements from PubChem BioAssay AID492980 (National Center for Advancing Translational Sciences (NCATS), 2010).

The entries are a selection whose mix differs from that of the whole data set. Inconclusive results are not listed. Activity calls are given as the source filed them. Calls follow the shape of the full dose curve.

The nature of this assay: Assay for Inhibitors of Influenza NS1 Protein Function: Hit Validation. Also: 0% is about no effect. Conditions: influenza NS1 function cell assay, 15-point titration; at 32.9 µM (top of the series). An excerpt:
NIH Chemical Genomics Center [NCGC]
NIH Molecular Libraries Probe Centers Network [MLPCN]
Assay Submitter (PI): Daniel Engel
Influenza is a world-wide public health problem and emerging forms of the virus have the potential to cause a pandemic of equal or greater magnitude to the outbreaks recorded in 1918, 1957 or 1968. Vaccine development is proceeding and there also exist two classes of anti-influenza compounds. However these therapeutic modalities are neither fully effective nor widely enough available to fulfill global needs. In addition their potential usefulness against newly emergent strains is not known. Efforts are needed to develop novel agents against influenza virus, including broad-spectrum agents. Identification of small molecules that inhibit NS1 function either directly or by interfering with specific cellular pathways may be a key to increasing our defense against the virus.
We have miniaturized and optimized a cell based assay in which NS1 from influenza A is expressed in the budding yeast S. cerevisiae. NS1 is a multi-functional protein that counters the host innate immune response and facilitates viral versus cellular gene expression. Expression of NS1 causes a pronounced slow growth phenotype in yeast due to its intrinsic molecular activities. […]
9. Read plate using Viewlux protocol for optical density 600 (OD600) using excitation filter 600nm.
Take `NC(=O)Nc1ccc([As](=O)(O)O)cc1`: the activity change, negative = inhibition is inactive: 6.07%.
